Pooled drug test results. Numbers come from NIAID ChemDB, via PubChem.

Common to all: toxicity to cultured cells; endpoint: CC50

Lines come from different laboratories, so protocols vary. CCn is the concentration with n% toxicity to the cells. Blank or dashed fields: not listed here.

smiles | method | cells | result
Cc1cc(OCCOCP(=O)(O)O)nc(N)n1 | - | HepAD38 | >380 µM
O=C(NC1N=C(c2ccccc2)c2ccccc2NC1=O)C(=O)c1cccs1 | - | HEP-2 | 9.5 µM
O=C1C(=O)N(CN2CCN(c3ccnc4cc(Cl)ccc34)CC2)c2ccccc21 | MTT / absorbance | Human foreskin fibroblasts | 8 µM
CSc1ccc(C(=O)NC2N=C(c3ccccc3)c3ccccc3NC2=O)cc1 | - | HEP-2 | 6.2 µM
Nc1ncnc2c1ncn2CCOCP(=O)(O)O | - | BCBL-1 | 22 µg/mL
Clc1ccc2ccccc2n1 | MTT / absorbance | Human foreskin fibroblasts | 8.5 µM
CO[C@H]1/C=C/O[C@@]2(C)Oc3c(C)c(O)c4c(O)c(c(C5SCCS5)c(O)c4c3C2=O)NC(=O)/C(C)=C\C=C\[C@H](C)[C@@H]2OC(C)(C)O[C@@H]([C@@H](C)[C@H](OC(C)=O)[C@@H]1C)[C@@H]2C | - | VERO | 4.04 µg/mL
O=c1[nH]cnc2c1ncn2[C@H]1CC[C@@H](CO)O1 | - | HELA-CD4+ | 3.1 µM
CC(C)(C)CC(C)(C)c1ccc(OCCOP(=O)([O-])OCC[N+](C)(C)Cc2ccccc2)cc1 | MTT | MDA | >100 µM
COc1cc(-c2ccccc2)c(O)c(OC)c1O | sulforhodamine / absorbance | HT-29 | >50 µM
Cc1cccc(C)c1NC1=CC(=O)C(=O)c2ccccc21 | - | VERO | 4.9 µg/mL
COc1cc(O)cc2oc3cc(O)c(O)cc3c(=O)c12 | sulforhodamine / absorbance | HT-29 | >50 µM
Nc1nc(N)c(Br)c(OCCOCP(=O)(O)O)n1 | - | HEPAD79 | >292 µM
COc1cc([C@@H]2c3cc4c(cc3[C@H](OC(C)=O)[C@@H]3COC(=O)[C@@H]23)OCO4)cc(O)c1O | - | HT-29 | 5.84 µM
CC(C)=CCC[C@@H](C)[C@@H]1CC[C@]2(C)C3=C(CC[C@@]12C)[C@@]1(C)CC[C@H](O)C(C)(C)[C@@H]1CC3 | sulforhodamine / absorbance | P-388 | 41.75 µM
Nc1cc(=O)n(CCOCP(=O)(O)O)c(N)n1 | - | CCRF-CEM | <10 µM
O=c1cc(-c2ccc(Oc3c(O)cc4oc(-c5ccc(O)cc5)cc(=O)c4c3O)cc2)oc2cc(O)cc(O)c12 | visual reading | MA-104 | 2.5 µg/mL
Cc1ccc(SCC(=O)NCc2cccs2)cc1 | - | VERO | 200 µg/mL
O=C1C(=O)N(CCCNc2ccnc3cc(C(F)(F)F)ccc23)c2cccc(Cl)c21 | MTT / absorbance | Human foreskin fibroblasts | 8.25 µM
Nc1nc2c(ncn2COCCO)c(=O)[nH]1 | - | BCBL-1 | ≥144 µg/mL
Nc1nc2c(ncn2[C@@H]2C[C@H](CO)[C@H]2CO)c(=O)[nH]1 | - | SupT1 | 15 µg/mL
c1ccc2c(c1)nnn1c3ncccc3nc21 | - | VERO | 9.99 µg/mL
FC(F)(F)c1ccc2c(NCCCN3CCN(c4ccnc5cc(C(F)(F)F)ccc45)CC3)ccnc2c1 | MTT / absorbance | Human foreskin fibroblasts | 1.75 µM
NNC(=O)c1ccccn1 | - | VERO | 11 µg/mL
N#Cc1c(N)nc(N)nc1OCCOCP(=O)(O)O | - | HEPAD79 | >346 µM
COC(=O)[C@H]1C2CON=C2c2cc3c(cc2[C@H]1c1cc(OC)c(OC)c(OC)c1)OCO3 | - | P-388 | 2.3 µM
C/C(=C\C=C\C(C)[C@H]1CC[C@@]2(C)[C@@H]3CC[C@H]4C(C)(C)C(=O)CC[C@]4(C)C3=CC[C@]12C)C(=O)O | sulforhodamine / absorbance | ASK (Atlantic salmon kidney) | >50 µM
CC(CN1CCN(CCOCCO)CC1)CN1c2ccccc2Sc2ccc(Cl)cc21 | - | VERO | 5.94 µg/mL
Nc1cc(OCCOCP(=O)(O)O)nc(=O)[nH]1 | - | HepAD38 | >356 µM
CC1(C)CCCN1CCCN1c2ccccc2Sc2ccc(Cl)cc21.Cl | - | VERO | 4.4 µg/mL
Nc1cc(OCCOCP(=O)(O)O)ncn1 | - | HeLa S3 | <10 µM
[Cl][Fe][Cl].c1cnc2c(c1)ccc1cccnc12 | - | VERO | 1.22 µg/mL
COC(=O)[C@@H]1[C@H](c2cc(OC)c3nccnc3c2)c2cc3c(cc2C2=NOC[C@@H]21)OCO3 | - | MEL-28 | 2.8 µM
Cc1ccc(C(=O)N=Nc2c(Cl)c(O)c3ccccc3c2O)cc1 | - | VERO | 1.48 µg/mL
CCCCCCCCCCCCCCCCOP(=O)([O-])OCCC[n+]1ccccc1 | MTT | HUVEC | >100 µM
CCN(CC)CCNc1ccc(C)c2sc3ccc(N)cc3c(=O)c12 | - | VERO | 1.02 µg/mL
Cc1cc(=O)n(CCOCP(=O)(O)O)c(N)n1 | - | CCRF-CEM | <10 µM
COc1ccc(C(=O)NC2N=C(c3ccccc3F)c3cc(Cl)ccc3NC2=O)cc1 | - | HEP-2 | 6 µM
O=[n+]1c2ccccc2n([O-])c2ccccc21 | - | VERO | 30.5 µg/mL
CCCCC1CN(C(=O)C2CCOCC2)CCC12CCN(C1(C)CCN(C(=O)c3c(C)cc(C#N)nc3C)CC1)CC2 | - | CEM-R5 | 0.17 µM
Oc1cccc2cccnc12 | MTT / absorbance | Human foreskin fibroblasts | 0.5 µM
CN(C)c1ccc(C(=O)NC2N=C(c3ccccc3)c3ccccc3NC2=O)cn1 | - | HEP-2 | 6.9 µM
CCCCCCCCCCCCCCCCOP(=O)([O-])OCCC[N+](C)(C)C | MTT | MDA | 61.7 µM
COc1cc([C@@H]2c3cc4c(cc3[C@H](OC(C)=O)[C@@H]3COC(=O)[C@@H]23)OCO4)cc(OC)c1OC | - | P-388 | 0.55 µM
O=C1C(=O)N(CN2CCN(c3ccnc4cc(Cl)ccc34)CC2)c2cc(Cl)ccc21 | MTT / absorbance | Human foreskin fibroblasts | 11.7 µM
CC(C)CN(C[C@@H](O)[C@H](Cc1ccccc1)NC(=O)O[C@H]1CCOC1)S(=O)(=O)c1ccc(N)cc1 | MTT | TM-31 | >100 µM
O=c1c2cc(O)ccc2oc2cccc(O)c12 | XTT / absorbance | 1A2 | >548 µM
CC(C)CN(C[C@@H](O)[C@H](Cc1ccc(F)cc1)NC(=O)O[C@H]1CCO[C@H]2OCC[C@H]21)S(=O)(=O)c1ccc2nc(NC(C)C)sc2c1 | MTT | KG-1-C | >100 µM
C[C@@H](COc1cc(N)nc(N)n1)OCP(=O)(O)O | - | HeLa S3 | <10 µM
CC1(C)C=Cc2c(O)c(C(=O)c3ccccc3)c3c(c2O1)C=CC(C)(C)O3 | XTT / absorbance | 1A2 | 123 µM
O=c1cc(-c2ccc(O)c(-c3c(O)cc(O)c4c(=O)cc(-c5ccc(O)cc5)oc34)c2)oc2cc(O)cc(O)c12 | neutral red | MA-104 | ~56 µg/mL
CCCCC1C(=O)N(CC2CCN(CC(F)F)CC2)CCC12CCN(C1(C)CCN(C(=O)c3c(C)ncnc3C)CC1)CC2 | - | CEM-R5 | 0.07 µM
O=C1C[C@@H](c2ccc(O)cc2)Oc2cc(O)c(-c3c(O)cc4c(c3O)C(=O)C[C@@H](c3ccc(O)cc3)O4)c(O)c21 | neutral red | MDCK | 5 µg/mL
COc1c(O)ccc2c(=O)c3c(O)cccc3oc12 | XTT / absorbance | 1A2 | 106 µM
Cc1ccc(/C=N/NC(=O)c2ccncc2)s1 | - | VERO | >62.5 µg/mL
Nc1ncnc2c1ncn2CCOCP(=O)(O)O | - | SupT1 | 43 µg/mL
O=C1c2c(O)cc(O)cc2O[C@H](c2ccc(O)cc2)[C@H]1c1c(O)cc(O)c2c(=O)cc(-c3ccc(O)c(O)c3)oc12 | sulforhodamine / absorbance | MCF-7 | >50 µM
Nc1nc(NC2CC2)cc(OCCOCP(=O)(O)O)n1 | - | CCRF-CEM | <10 µM
O=C(N=Nc1c(Cl)c(O)c2ccccc2c1O)C(F)(F)F | - | VERO | 4.46 µg/mL
O=c1[nH]c(=O)n([C@@H]2O[C@H](CO)[C@@H](O)[C@@H]2O)cc1/C=C/Br | - | CD4+ T lymphocytes | >250 µg/mL
CCN(CC)C(=S)[S][Bi]([S]C(=S)N(CC)CC)[S]C(=S)N(CC)CC | - | VERO | 0.42 µg/mL
CCCCCCCCCCCCCCCCOP(=O)([O-])OCCC[N+](C)(C)Cc1ccccc1 | MTT | HUVEC | >100 µM
COc1cccc(NC(=O)NC2N=C(c3ccccc3)c3ccccc3NC2=O)c1 | - | HEP-2 | 4.9 µM
O=C1C=C(Nc2ccccc2)c2ccccc2C1=O | - | VERO | 3.38 µg/mL
O=c1c2cc(O)ccc2oc2cc(O)cc(O)c12 | XTT / absorbance | 1A2 | 323 µM
FC(F)(F)c1ccc2c(c1)N(CCCN1CCN(C3CC3)CC1)c1ccccc1S2 | - | VERO | 9 µg/mL
COC(=O)[C@@H]1[C@H](c2cc(OC)c3nc4cc(Cl)c(Cl)cc4nc3c2)c2cc3c(cc2C2=NOC[C@@H]21)OCO3 | - | MEL-28 | >18 µM
C=CCn1c2ccccc2c2c(C)c3cnccc3c(C)c21 | - | VERO | 2.11 µg/mL
COc1cc(O)cc(O)c1C(=O)c1cc(O)cc(O)c1 | XTT / absorbance | 1A2 | >452 µM
CC(C)CCCC(C)C1CCC2C3CCC4CC(NC(=O)CNCCCSC(C)C)CCC4(C)C3CCC12C | - | VERO | >10 µg/mL
C[C@H](COc1cc(N)nc(N)n1)OCP(=O)(O)O | - | HepAD38 | >360 µM
c1ccc(-c2ccc(-c3ccc(C4=NCCN4)cc3)o2)cc1 | - | VERO | 1.5 µg/mL
CCCCC1CN(S(=O)(=O)C2CCOCC2)CCC12CCN(C1(C)CCN(C(=O)c3c(C)ncnc3C)CC1)CC2 | - | CEM-R5 | 0.006 µM
COc1ccc(-c2cc(C(=O)O)c3cc4ccccc4cc3n2)cc1Br | - | VERO | 26.33 µg/mL
Nc1nc2c(ncn2COCCO)c(=O)[nH]1 | - | CD4+ T lymphocytes | >250 µg/mL

Repeating the first 6 entries:

smiles | method | cells | result
Cc1cc(OCCOCP(=O)(O)O)nc(N)n1 | - | HepAD38 | >380 µM
O=C(NC1N=C(c2ccccc2)c2ccccc2NC1=O)C(=O)c1cccs1 | - | HEP-2 | 9.5 µM
O=C1C(=O)N(CN2CCN(c3ccnc4cc(Cl)ccc34)CC2)c2ccccc21 | MTT / absorbance | Human foreskin fibroblasts | 8 µM
CSc1ccc(C(=O)NC2N=C(c3ccccc3)c3ccccc3NC2=O)cc1 | - | HEP-2 | 6.2 µM
Nc1ncnc2c1ncn2CCOCP(=O)(O)O | - | BCBL-1 | 22 µg/mL
Clc1ccc2ccccc2n1 | MTT / absorbance | Human foreskin fibroblasts | 8.5 µM